# Library screen at single concentrations

Data taken from ChEMBL document CHEMBL3988442, “University of Dundee, Small-Polar-MMV Screening Library” (2021).

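Phenotypic screen: M. tuberculosis growth, cholesterol and DPPC medium, 4 days; the read-out is not stated. Tested at 500 µM. Direction is inferred from retests: higher values go with more growth inhibition. Size under these conditions: about 18,000 compounds, about 900 of them at 50% or above in at least one test.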

Each number is a percent effect as filed.
The record does not define 0% and 100%; most values in the screen are far below 50% and negative numbers occur (in some assays of this library far below -100).
Many other results are left out here, so strong results are more common than in the screen.

| SMILES | effect |
|---|---|
| `CN(C)C(=O)C1CCCN(Cc2cccc(F)c2)C1` (stereo not shown) | -5.065% |
| `OCC1(O)CCCN(c2ccnc3ccc(Cl)cc23)C1` (stereo not shown) | -6.56% |
| `CC(C)(C)NC(=O)CNC(=O)c1cccc2cn[nH]c12` | 1.05% |
| `COCc1cccc(S(=O)(=O)N2CC[C@H](N)C2)c1` | -1.32% |
| `COCc1noc(-c2cc(S(N)(=O)=O)cc(C)c2C)n1` | 1.711% |
| `CNC(=O)C1CCN(Cc2c(F)cccc2Cl)C1` (stereo not shown) | 28.42% |
| `CC(C)NC(=O)C(C)N1CCNCC1` (stereo not shown) | -4.53% |
| `NC(=O)CSc1ccnc(SCC(N)=O)n1` | -0.594% |
| `CCOc1cccc(CSc2nc(=O)ccn2CC)n1` | 26.69% |
| `Cn1nc2n(c1=O)CCN(Cc1ccc(Br)s1)CC2` | 71.51% |
| `CCCn1cc(C(=O)N2CCN(CCO)CC2)c(C)n1` | -4.571% |
| `Cc1nc(CN2Cc3ccccc3CC2C(N)=O)c[nH]1` (stereo not shown) | 7.638% |
| `O=C1CN(Cc2ncc(-c3ccc(Cl)cc3)o2)CCN1` | -14.33% |
| `O=C(c1ccc(Br)s1)N1CCN(c2ccccn2)CC1` | 12.72% |
| `CCc1nn(C)c(CC)c1S(=O)(=O)N1CCC(N)C1` (stereo not shown) | -12.68% |
| `CC(C)(C)NC(=O)CNc1cc(CCN)ncn1` | -6.433% |
| `Cn1cccc1C(=O)NC(=O)CSc1ncccn1` | 3.82% |
| `CCn1c(=O)c2ccccc2n(CC)c1=O` | -4.725% |
| `Cc1cc(C(=O)N2CCCCC2)c2c(C)nn(C)c2n1` | -23.58% |
| `NCCc1ccc(OCC(F)(F)F)nc1` | 53.71% |
| `O=C1NC(=O)[C@@H]2CNC[C@H]12` | -6.128% |
| `CCN(CC)CCN1CCN(CCOC)CC1` | -15.25% |
| `CCCOc1ccc(CNC(=O)c2cc[nH]n2)cn1` | 53.37% |
| `O=C(NCc1cccs1)c1cnsn1` | 64.99% |
| `CCN(Cc1ccoc1)C(=O)[C@@H](N)C(C)C` | -5.092% |
| `CCOc1ccc(CC(=O)N2CCN(CC)CC2)cc1` | 37.84% |
| `COCc1noc(CC(C)NC(=O)C2CCCC2)n1` (stereo not shown) | -2.25% |
| `COc1ccccc1N1CCCC(N)C1` (stereo not shown) | 5.703% |
| `CN(Cc1ccco1)S(=O)(=O)CCN1CCCC1` | 23.14% |
| `CN(CCC(O)c1ccccc1)C(=O)c1cc(Cl)c[nH]1` (stereo not shown) | 90.3% |
| `O=C(CCOc1cccc(F)c1)NCC1CCCO1` (stereo not shown) | 28.97% |
| `Cc1cc(C(=O)N(C)CC(=O)NC2CC2)c(C)o1` | -11.91% |
| `CC(=O)NC(c1cnc2ccccc2c1)[C@H]1C[C@@H](O)C1` (stereo partly shown) | -10.73% |
| `CS(=O)(=O)CCN(CC(O)c1ccccc1)C1CC1` (stereo not shown) | -14.5% |
| `O=C1c2ccc(F)cc2C(=O)N1c1ccccc1F` | -3.658% |
| `CCNC(=O)N1CCC(NC(=O)c2cc(Cl)c[nH]2)C1` (stereo not shown) | 0.523% |
| `Cc1nc(CN(C)C(=O)NCc2ccccc2)no1` | 21.17% |
| `CCC(NC(=O)c1cnc(O)cn1)c1nc(C)c(C)s1` (stereo not shown) | -1.004% |
| `C=Cc1cccc(CN(C)CCC(=O)NC)c1` | -0.6139% |
| `O=C(CCC(=O)c1ccccc1)NCc1cccnc1` | -31.9% |
| `O=C1CCN(Cc2ccc(OC(F)F)c(Cl)c2)CCN1` | 33.78% |
| `Cc1cccc(CN(CC(N)=O)Cc2ccccn2)c1` | 31.37% |
| `O=C(c1ccc(Cl)s1)N1CCN(c2nc[nH]n2)CC1` | 25.97% |
| `CC(=O)c1cccc(C#N)c1` | 7.355% |
| `CCCOC(=O)C(C)NC(=O)c1cccs1` (stereo not shown) | 68.36% |
| `CN(Cc1cnn(C)c1)C(=O)C1CCC(=O)NC1` (stereo not shown) | -3.566% |
| `CN(C)C(=O)CN1CCCC1c1ccc(F)cc1` (stereo not shown) | 56.26% |
| `Cc1ccc(C(=O)N2CCCN(C)CC2)nc1` | -4.819% |
| `COc1ccsc1C(=O)Nc1nc(C)nn1C` | 1.045% |
| `CCC(=O)N1CCN(c2ccc(C(C)=O)cc2F)CC1` | 19.37% |
| `COc1ccnc(NC(=O)c2sccc2OC)c1` | -12.62% |
| `Cc1ccc(F)c(N2CCC(N)CC2)c1` | 16.88% |
| `COC(=O)C(O)CNc1ccc(C(F)(F)F)cn1` (stereo not shown) | 60.39% |
| `O=C(Oc1nsnc1N1CCCCC1)N1CCOCC1` | 62.67% |
| `OCCN1CCN(c2nc(-c3ccccc3)no2)CC1` | 60.11% |
| `CC(C)(C)OC(=O)N1CCC(n2ccc(N)n2)C1` (stereo not shown) | 2.835% |
| `O=C(NCC1COCCO1)c1cnc2ccccc2c1` (stereo not shown) | 31.3% |
| `COc1cccc(Nc2ncnc(N)n2)c1` | 6.127% |
| `COc1c[nH]c(C(=O)NCCSC(F)(F)F)cc1=O` | -9.302% |
| `CCc1nc(CCN)cs1` | 79.77% |
| `O=S(=O)(NCC1(NS(=O)(=O)C2CC2)CCC1)C1CC1` | 10.42% |
| `Cc1noc(C)c1CN1CCCC(C(N)=O)C1` (stereo not shown) | 0.4698% |
| `COC(=O)NCCc1ccccc1OC` | 29.36% |
| `CC(C)CCNC(=O)Nc1ccc(-n2cccn2)nc1` | 63.13% |
| `Nc1cncc(-c2nccs2)c1` | -20.68% |
| `c1cc(C2CCNCC2)n[nH]1` | -4.337% |
| `CC1=CCN(CCN)CC1` | -3.191% |
| `COc1cc(CCN)ccc1C` | 114.3% |
| `Cc1cc(N2CCN(C)CC2)n2ncnc2n1` | 0.9144% |
| `CCN1CC(c2nc3ccccc3[nH]2)CC1=O` (stereo not shown) | 52.59% |
| `CNCCN1CCOC1=O` | 5.656% |
| `Cn1cc(CNC(=O)c2ccco2)cn1` | 13.72% |
| `CN1CCCN(S(=O)(=O)c2ccccc2F)CC1` | 11.98% |
| `NCC1CCCCN(Cc2ccccc2)C1` (stereo not shown) | -2.776% |
| `CNS(=O)(=O)C1CCCN(c2ncc(Cl)cn2)C1` (stereo not shown) | -14.49% |
| `CC(C)(C)CNC(=O)CCN1C(=O)CCC1=O` | 5.671% |
| `Cc1cc(C)cc(C(O)Cn2ccnc2S(C)(=O)=O)c1` (stereo not shown) | 9.468% |
| `Cn1nnnc1SCCNCc1ccc(Br)cc1` | 73.91% |
| `O=C(NCCCNCc1cccnc1)c1ccsc1` | 13.3% |
| `Nc1cc(-c2ccc3c(c2)OCCO3)n[nH]1` | -13.55% |
| `Cc1cc(CNS(=O)(=O)N(C)C)ccc1F` | 11.06% |
| `CNS(=O)(=O)CCNC(=O)C(C)c1ccccc1` (stereo not shown) | 6.124% |
| `CCOc1cc(CN)ccc1OC(F)F` | 26.43% |
| `CN(Cc1ccco1)CC(O)COCc1cccs1` (stereo not shown) | 80.32% |
| `COc1cc(N2CCNCC2)cc(OC)c1OC` | 12.07% |
| `CC(C)(C)N1CC(=O)NCC1=O` | 2.197% |

The last 5 entries again:

CNS(=O)(=O)CCNC(=O)C(C)c1ccccc1 (stereo not shown) gave 6.124%.
CCOc1cc(CN)ccc1OC(F)F gave 26.43%.
CN(Cc1ccco1)CC(O)COCc1cccs1 (stereo not shown) gave 80.32%.
COc1cc(N2CCNCC2)cc(OC)c1OC gave 12.07%.
CC(C)(C)N1CC(=O)NCC1=O gave 2.197%.